# Measurements: article PMC11338637 (Molecular cell, 2024)
# Biological target: Hir complex (Hir1/Hir2/Hir3/Hpc2) (S. cerevisiae)
# Assay: SPR
binder,measurement,value
full-length yeast Asf1 (natural protein) not shown,Kd,132 nM
